Target: H6tHAtev1V(2-94)LS, Photinus pyralis
Assay: cell-based or functional assay

Substance: BoNT/F1 (recombinant, activated full-length)
- EC50 of cleavage of generic substrate with reporter luc, JDZ-buffer, 1 h 37°C: 0.03 nM
- EC50 of substrate cleavage, endopeptidase assay, JDZ-buffer, 1 h 37°C: 0.03 nM

Source: EP3529371
